Anti-infective test results gathered from many reports (values: NIAID ChemDB through PubChem).

Common to all: growth or infection tests; species: HIV-2; measure: EC50

ECn: concentration that inhibits the pathogen or its effect by n%.

compound	strain or isolate	cell line	result
Cc1cn([C@@H]2O[C@@H]3CN[C@@]4(OCCOc5ccccc5)CS(=O)(=O)O[C@@]34[C@H]2O)c(=O)[nH]c1=O	ROD	CEM	>250 µM
C=C1O[C@@H](n2cc(C)c(=O)n(C)c2=O)[C@H](O[Si](C)(C)C(C)(C)C)[C@]12OS(=O)(=O)C=C2N		CEM + CEM/0	>50 µM
CCCn1c(Sc2ccccc2)c([N+](=O)[O-])c(=O)[nH]c1=O	ROD	MT-4	>72.9 µg/mL
COC(=O)CC(OP(=O)(OC[C@@H]1C=C[C@H](n2cc(C)c(=O)[nH]c2=O)O1)OC(CC(=O)OC)c1ccc(OC(C)=O)cc1)c1ccc(OC(C)=O)cc1		CEM	0.3 µM
CCOC(=O)c1nnsc1Nc1ccccc1Nc1snnc1C(=O)OCC	ROD		26 µM
Cc1cn([C@@H]2O[C@H](COC(=O)C(C)C)C3(OS(=O)(=O)C=C3N)[C@H]2O[Si](C)(C)C(C)(C)C)c(=O)n(C)c1=O		CEM + CEM/0	>50 µM
COC(=O)[C@H](C)NP(=O)(OC[C@@H]1C=C[C@H](n2cc(C)c(=O)[nH]c2=O)O1)Oc1ccccc1		CEM	0.075 µM
CSCCC(NS(=O)(=O)c1ccc(Cl)cc1)c1nnc(SCc2ccccc2)o1	ROD	MT-4	>12.67 µg/mL
Cc1cn([C@@H]2O[C@H](COC(=O)N(C)C)C3(OS(=O)(=O)C=C3N)[C@H]2O[Si](C)(C)C(C)(C)C)c(=O)n(C)c1=O		CEM + CEM/0	>50 µM
O=c1c([N+](=O)[O-])c(Sc2ccccc2)nc2[nH]c(-c3ccccc3)cn12	ROD	MT-4	>2.56 µg/mL
O=c1ccn([C@@H]2C[C@H](CO)C[C@H]2CO)c(=O)[nH]1		CEM	>100 µg/mL
COc1ccc(NC(=S)N/N=C2\CC(C)CCC2C(C)C)cc1	ROD	MT-4	>84.6 µg/mL
CC(C)=CCOC[C@H]1O[C@@H](n2cc(C)c(=O)n(C)c2=O)[C@H](O[Si](C)(C)C(C)(C)C)C12OS(=O)(=O)C=C2N		CEM + CEM/0	>10 µM
CSCCC(NS(=O)(=O)c1ccc(C)cc1)c1nnc(SCc2ccccc2)o1	ROD	MT-4	>30.48 µg/mL
CCCn1c(Sc2ccccc2)c(N)c(=O)[nH]c1=O	ROD	MT-4	>44.3 µg/mL
COC(=O)[C@H](C)NP(=O)(OC[C@@H]1C=C[C@H](n2cc(C)c(=O)[nH]c2=O)O1)Oc1ccccc1	ROD	CEM + CEM/0	0.102 µM
COC(=O)[C@@H](NP(=O)(OC[C@@H]1C=C[C@H](n2cc(C)c(=O)[nH]c2=O)O1)Oc1ccccc1)c1ccccc1		CEM	15.3 µM
O=C1c2cc(-c3ccccc3)sc2N(Cc2ccccc2)S(=O)(=O)N1COCc1ccccc1		CEM	>400 µg/mL
O=c1[nH]cnc2c1ncn2C1C[C@H](CO)[C@@H](CO)C1		CEM	>100 µg/mL
CCC(CC)(NP(=O)(OC[C@@H]1C=C[C@H](n2cc(C)c(=O)[nH]c2=O)O1)Oc1ccccc1)C(=O)OC		CEM + CEM TK-	50 µM
O=C1c2sc(-c3ccccc3)cc2N(COCCO)S(=O)(=O)N1Cc1ccccc1		CEM	>400 µg/mL
CCCCCCNP(=O)(OC[C@H]1O[C@@H](n2cc(C)c(=O)[nH]c2=O)C[C@@H]1N=[N+]=[N-])Oc1ccccc1	ROD	CEM(TK-) + CEM TK-	>8 µM
Cc1ccc(NC(=S)N/N=C2\CC(C)CCC2C(C)C)cc1	ROD	MT-4	>2.6 µg/mL
Cn1c(Sc2ccncc2)c([N+](=O)[O-])c(=O)n(C)c1=O	ROD	MT-4	2.54 µg/mL
Nc1nc2c(ncn2COC(CO)CO)c(=O)[nH]1		CEM	>400 µg/mL
Cc1cn([C@@H]2O[C@H](CN3CCN(C)CC3)C3(OS(=O)(=O)C=C3N)[C@H]2O[Si](C)(C)C(C)(C)C)c(=O)n(C)c1=O		CEM + CEM/0	>10 µM
Cc1ccc(S(=O)(=O)N(Cc2ccc(Br)cc2)C(C)c2nnc(SCc3ccc(Br)cc3)o2)cc1	ROD	MT-4	>125 µg/mL
CC1CCC(C(C)C)/C(=N/NC(=O)Nc2cccc(Cl)c2)C1	ROD	MT-4	>125 µg/mL
Cc1ccc(S(=O)(=O)NC(Cc2ccccc2)c2nnc(SCc3ccc(F)cc3)o2)cc1	ROD	MT-4	>90.83 µg/mL
Nc1nc2c(ncn2COCCO)c(=O)[nH]1		CEM	>400 µg/mL
Cc1cn([C@@H]2O[C@H](CN3CCNCC3)C3(OS(=O)(=O)C=C3N)[C@H]2O[Si](C)(C)C(C)(C)C)c(=O)n(C)c1=O		MT-4	37.3 µM
CSCCC(NS(=O)(=O)c1ccc(Cl)cc1)c1nnc(SCc2ccc(F)cc2)o1	ROD	MT-4	>13.65 µg/mL
O=c1[nH]c(=O)n(C2C[C@H](CO)[C@@H](CO)C2)cc1I		CEM	>100 µg/mL
CCCC[C@H](NP(=O)(OC[C@@H]1C=C[C@H](n2cc(C)c(=O)[nH]c2=O)O1)Oc1ccccc1)C(=O)OC		CEM + CEM TK-	0.22 µM
Cc1cn([C@@H]2O[C@@H]3CN[C@@]4(C(N)=O)CS(=O)(=O)O[C@@]34[C@H]2O)c(=O)[nH]c1=O	ROD	MT-4	>250 µM
CC(NS(=O)(=O)c1ccc(Cl)cc1)c1nnc(SCc2ccc(Cl)cc2)o1	ROD	MT-4	>14.08 µg/mL
CC(=O)Oc1ccc(COP(=O)(OCc2ccc(OC(C)=O)cc2)OC[C@@H]2C=C[C@H](n3cc(C)c(=O)[nH]c3=O)O2)cc1		CEM	0.33 µM
Cc1cn([C@@H]2O[C@@H]3CN[C@@]4(OCCOc5ccccc5)CS(=O)(=O)O[C@@]34[C@H]2O[Si](C)(C)C(C)(C)C)c(=O)[nH]c1=O	ROD	CEM	>5 µM
Nn1cc[nH]c1=S	ROD		0.2–4 µg/mL
CCCn1c(Cl)c([N+](=O)[O-])c(=O)[nH]c1=O	ROD	MT-4	>62.4 µg/mL

Blank or dashed fields: not listed here. a–b is a range or a potency band. Lines come from different laboratories, so protocols vary.